PubChem BioAssay AID504761, Drosophila RNAi Screening Center, 2011

- Aim: 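Genome-wide fly cell screen for genes dengue virus requires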 (primary screen)
- System: D.Mel-2 cells from Drosophila
- Reagents: long dsRNA against Drosophila genes
- Treatment: infection with dengue virus type 2; dose and infection time not stated
- Read-out: 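Cells stained for dengue envelope protein and imaged; percent of infected cells per well on duplicate plates, ranked by infection, with stained nuclei counted for cell number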
- Scale: infection score: higher = more virus-infected cells; cell count: higher = more cells in the well
- Active means: 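Very low infection ranking in both replicate wells (chance probability at most 0.065), then a retest showing infection dropped 1.5-fold or more at p below 0.05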
- Calls: active = confirmed: knock-down lowers infection; inactive = not picked or not confirmed
The screen tested about 22,000 reagents; shown is a random part of those that have a named target and a result. Over the whole deposit, 116 (0.52%) were called active. 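Calls depend on retest data that are not deposited; infection was ranked per plate without normalising between plates; the unit of the infection score is not given.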 Raw values vary from plate to plate and are shown uncorrected. No sequences are given here. Not stated in the record: the amount of reagent, the time to read-out.

CycK [DRSC03714] showed infection score, replicate 1 = 4.96; infection score, replicate 2 = 13.8; cell count, replicate 1 = 4783; cell count, replicate 2 = 3932; inactive.
Silencing of CG31675 [DRSC01825] came out at: infection score, replicate 1 = 2.08; infection score, replicate 2 = 1.3; cell count, replicate 1 = 5913; cell count, replicate 2 = 6235; inactive.
CG31675 [DRSC26340] gave infection score, replicate 1 = 10.7; infection score, replicate 2 = 1.25; cell count, replicate 1 = 6405; cell count, replicate 2 = 6341; inactive.
For Tango10 [DRSC19807], the values are infection score, replicate 1 = 7.14; infection score, replicate 2 = 7.05; cell count, replicate 1 = 6109; cell count, replicate 2 = 7092; inactive.
Silencing of Tango10 [DRSC26535] came out at: infection score, replicate 1 = 1.28; infection score, replicate 2 = 1.93; cell count, replicate 1 = 6402; cell count, replicate 2 = 6427; inactive.
With knock-down of Yp1 [DRSC18731], the record shows infection score, replicate 1 = 0.42; infection score, replicate 2 = 0.91; cell count, replicate 1 = 6423; cell count, replicate 2 = 6620; inactive.
After knock-down of Yp1 [DRSC27876], the record shows infection score, replicate 1 = 6.14; infection score, replicate 2 = 17.4; cell count, replicate 1 = 6887; cell count, replicate 2 = 5704; inactive.
After knock-down of CG31957 [DRSC00207], the screen gave infection score, replicate 1 = 3.36; infection score, replicate 2 = 1.9; cell count, replicate 1 = 6161; cell count, replicate 2 = 5197; inactive.
With knock-down of CG33461 [DRSC22892], the record shows infection score, replicate 1 = 0.93; infection score, replicate 2 = 0.68; cell count, replicate 1 = 5942; cell count, replicate 2 = 6439; inactive.
Silencing of CG33461 [DRSC26007] came out at: infection score, replicate 2 = 15.5; cell count, replicate 1 = 613; cell count, replicate 2 = 5545; inactive.
For RPA3 [DRSC19658], the entry reads infection score, replicate 1 = 6.32; infection score, replicate 2 = 4.66; cell count, replicate 1 = 5787; cell count, replicate 2 = 5756; inactive.
Knock-down of DnaJ-1 [DRSC11145] resulted in: infection score, replicate 1 = 2.28; infection score, replicate 2 = 1.05; cell count, replicate 1 = 6364; cell count, replicate 2 = 6746; active.
Knock-down of mRpL16 [DRSC18550] resulted in: infection score, replicate 1 = 9.8; infection score, replicate 2 = 5.92; cell count, replicate 1 = 6671; cell count, replicate 2 = 7074; inactive.
mRpL16 [DRSC29510] scored infection score, replicate 1 = 10.2; infection score, replicate 2 = 4.85; cell count, replicate 1 = 1408; cell count, replicate 2 = 1196; inactive.
With knock-down of aay [DRSC11320], the record shows infection score, replicate 1 = 6.21; infection score, replicate 2 = 3.72; cell count, replicate 1 = 6164; cell count, replicate 2 = 5960; inactive.
Depletion of CG15080 [DRSC06511] resulted in: infection score, replicate 1 = 2.88; infection score, replicate 2 = 0.54; cell count, replicate 1 = 5733; cell count, replicate 2 = 6331; inactive.
Depletion of CG15080 [DRSC29374] gave: infection score, replicate 2 = 20.6; cell count, replicate 1 = 323; cell count, replicate 2 = 5630; inactive.
Knock-down of Peritrophin-A [DRSC20570] resulted in: infection score, replicate 1 = 9.1; infection score, replicate 2 = 3.49; cell count, replicate 1 = 6463; cell count, replicate 2 = 6274; inactive.
ArgRS [DRSC20138] showed infection score, replicate 1 = 0.37; infection score, replicate 2 = 1.97; cell count, replicate 1 = 3472; cell count, replicate 2 = 3601; inactive.
Depletion of CG13607 [DRSC14610] came out at: infection score, replicate 1 = 6.61; infection score, replicate 2 = 3.91; cell count, replicate 1 = 6338; cell count, replicate 2 = 6195; inactive.
Knock-down of CG31637 [DRSC02270] resulted in: infection score, replicate 1 = 1.46; infection score, replicate 2 = 1.54; cell count, replicate 1 = 5898; cell count, replicate 2 = 5719; inactive.
Knock-down of CG31637 [DRSC03263] came out at: infection score, replicate 1 = 8.88; infection score, replicate 2 = 0.81; cell count, replicate 1 = 5944; cell count, replicate 2 = 6648; inactive.
CG31637 [DRSC25193] scored infection score, replicate 1 = 1.64; infection score, replicate 2 = 2.71; cell count, replicate 1 = 6522; cell count, replicate 2 = 6120; inactive.

No new results follow: an excerpt of the list.
CG13607 [DRSC14610] → infection score, replicate 1: 6.61; infection score, replicate 2: 3.91; cell count, replicate 1: 6338; cell count, replicate 2: 6195; Call: inactive
CG31637 [DRSC02270] → infection score, replicate 1: 1.46; infection score, replicate 2: 1.54; cell count, replicate 1: 5898; cell count, replicate 2: 5719; Call: inactive
CG31637 [DRSC03263] → infection score, replicate 1: 8.88; infection score, replicate 2: 0.81; cell count, replicate 1: 5944; cell count, replicate 2: 6648; Call: inactive
